Compound potency records, mixed from different reports. Data source: NIAID ChemDB in PubChem.

All rows: growth or infection tests; organism: Candida albicans; read-out: zone

Zones are inhibition diameters on agar.

Cn1c(=S)[nH]c2nc(-c3ccccn3)c(-c3ccccn3)nc2c1=O ; dose: 500 mg/mL ; value: 0 mm
Cc1ccc(-c2nn(-c3ccc(S(N)(=O)=O)cc3)c3nc(C(F)(F)F)cc(C(F)(F)F)c23)cc1 ; read by: agar diffusion / agar ; dose: 4000 µg/mL ; strain or isolate: MTCC 227 ; value: 0 mm
CC(=O)Nc1nc(C)c(-c2n[nH]c(=S)n2N2C(=O)CSC2c2ccc(C)cc2)s1 ; read by: agar diffusion ; dose: 100 µg/mL ; value: 25 mm
CS(=O)(=O)c1nc(N)c(C#N)c(-c2ccccc2O)n1 ; read by: agar diffusion ; dose: 50 µg/mL ; strain or isolate: MTCC 227 ; value: 17 mm
Cc1c(Br)cccc1-c1nnc(CN2CCC(n3nc4ccccc4n3)CC2)o1 ; dose: 1200 µg/mL ; value: 17.85 mm
COc1ccc(C2=CC(c3nnc4c(n3)Nc3ccccc3N4)C(c3cc4c([nH]3)CC(C)(C)CC4=O)=C2)cc1 ; dose: 1000 µg/mL ; strain or isolate: ATCC 2091 ; value: 23 mm
Nc1ccc(Nc2cccc(Cl)c2)c2c(=O)[nH]cnc12 ; read by: agar diffusion ; dose: 1000 µg/mL ; strain or isolate: ATCC 10231 ; value: 0 mm
N#CC1=C(c2ccccc2)C(C#N)C(=O)C2=C1N=C/C(=C\c1sc(=O)[nH]c1O)C(c1ccccc1O)=N2 ; read by: agar diffusion / agar ; dose: 100 µg/mL ; strain or isolate: fungal strain ; value: 14 mm
S=c1[nH]nc(C23CC4CC(CC(C4)C2)C3)n1/N=C/c1ccccc1Cl ; read by: agar diffusion ; dose: 200 µg/disc ; strain or isolate: IFO 3007 ; value: <10 mm
Brc1ccccc1-c1nnc(CN2CCC(n3nc4ccccc4n3)CC2)o1 ; dose: 900 µg/mL ; value: 7.86 mm
O=C(N/N=C/c1cc(-c2ccc(Cl)cc2)on1)C12CC3CC(CC(C3)C1)C2 ; read by: agar diffusion / agar ; dose: 200 µg ; strain or isolate: IFO 0583 ; value: ≤10 mm
C[C@H]1[C@H](O)[C@@H](C)/C=C/C=C/C=C/C=C/C=C/C=C/C=C/[C@H](O[C@@H]2O[C@H](C)[C@@H](O)[C@H](N)[C@@H]2O)C[C@@H]2O[C@](O)(C[C@@H](O)C[C@@H](O)CC[C@H](O)[C@@H](O)C[C@@H](O)CC(=O)O[C@H]1C)C[C@H](O)[C@H]2C(=O)O ; read by: agar diffusion ; dose: 100 µg/mL ; strain or isolate: AI ; value: 30 mm
Nc1nc2nc(-c3ccccn3)c(-c3ccccn3)nc2c(=O)[nH]1 ; dose: 250 mg/mL ; value: 35 mm
Cc1ccc(-n2cc(-c3ccc([N+](=O)[O-])cc3)c(C(=O)/C=C/N(C)C)n2)cc1 ; read by: agar diffusion / agar ; dose: 2.5 mg/mL ; value: 4 mm
CSC1=NC(c2cccc3cc4ccccc4cc23)C(C#N)=C(N)N1 ; read by: agar diffusion ; dose: 100 µg/mL ; strain or isolate: MTCC 227 ; value: 19 mm
Cc1ccccc1Nc1ccc(Nc2c(Cl)c(Cl)c(C#N)c(Cl)c2C#N)c2nc[nH]c(=O)c12 ; read by: agar diffusion ; dose: 1000 µg/mL ; strain or isolate: ATCC 10231 ; value: 0 mm
O=[N+]([O-])c1ccccc1/C=N/n1c(C23CC4CC(CC(C4)C2)C3)n[nH]c1=S ; read by: agar diffusion ; dose: 200 µg/disc ; strain or isolate: IFO 3007 ; value: <10 mm
c1ccc(-c2nnc(CN3CCC(n4nc5ccccc5n4)CC3)o2)cc1 ; dose: 600 µg/mL ; value: 6.05 mm
Nc1ccccc1Nc1ccc([N+](=O)[O-])c2nc[nH]c(=O)c12 ; read by: agar diffusion ; dose: 1000 µg/mL ; strain or isolate: ATCC 10231 ; value: 0 mm
CCOC(=O)Cc1nnc2nnc3c(n12)Nc1ccccc1C3 ; dose: 1000 µg/mL ; strain or isolate: ATCC 2091 ; value: 23 mm
O=c1[nH]c(=O)c2nc(-c3ccccn3)c(-c3ccccn3)nc2[nH]1 ; dose: 500 mg/mL ; value: 25 mm
Cc1ccc(-c2cn3nc([N+](=O)[O-])sc3n2)cc1 ; read by: agar diffusion ; dose: 75 µg/mL ; value: 0 mm
S=c1n(CN2CCN(c3ccccc3)CC2)nc(C23CC4CC(CC(C4)C2)C3)n1/N=C/c1c(Cl)cccc1Cl ; read by: agar diffusion ; dose: 200 µg/disc ; strain or isolate: IFO 3007 ; value: <10 mm
CC(=O)Nc1nc(C)c(-c2n[nH]c(=S)n2N2C(=O)CSC2c2ccc(Cl)cc2)s1 ; read by: agar diffusion ; dose: 100 µg/mL ; value: 24 mm
CN(C)/C=C/C(=O)c1nn(-c2ccccc2)cc1-c1ccc([N+](=O)[O-])cc1 ; read by: agar diffusion / agar ; dose: 5 mg/mL ; value: 9 mm
CS(=O)(=O)c1nc(N)c(C#N)c(-c2ccccc2[N+](=O)[O-])n1 ; read by: agar diffusion ; dose: 50 µg/mL ; strain or isolate: MTCC 227 ; value: 18 mm
Clc1ccccc1C(c1ccccc1)(c1ccccc1)n1ccnc1 ; read by: agar diffusion / agar ; dose: 100 µg ; strain or isolate: IFO 0583 ; value: 21 mm
CCOC(=O)C1CCN(Cn2nc(C34CC5CC(CC(C5)C3)C4)n(/N=C/c3cc(OC)c(OC)cc3[N+](=O)[O-])c2=S)CC1 ; read by: agar diffusion ; dose: 200 µg/disc ; strain or isolate: IFO 3007 ; value: <10 mm
NS(=O)(=O)c1ccc(-n2nc(-c3ccccc3)c3c(C(F)(F)F)cc(-c4ccc(Cl)cc4)nc32)cc1 ; read by: agar diffusion / agar ; dose: 4000 µg/mL ; strain or isolate: MTCC 227 ; value: 0 mm
O=C1NC(=O)/C(=C/c2cc3c(=O)[nH]c(=O)nc-3oc2-c2ccccc2O)S1 ; read by: agar diffusion / agar ; dose: 100 µg/mL ; strain or isolate: fungal strain ; value: 6 mm
CCOC(=O)C1=NN(c2ccccc2)C2=Nc3nccc(-c4nn(-c5ccccc5)cc4-c4ccc([N+](=O)[O-])cc4)c3C(=O)C12 ; read by: agar diffusion / agar ; dose: 2.5 mg/mL ; value: 6 mm
CSC1=NC(c2ccc(Cl)cc2)C(C#N)=C(N)N1 ; read by: agar diffusion ; dose: 25 µg/mL ; strain or isolate: MTCC 227 ; value: 17 mm
CC(=O)C1=NN(c2ccccc2)C2=Nc3nccc(-c4nn(-c5ccccc5)cc4-c4ccc([N+](=O)[O-])cc4)c3C(=O)C12 ; read by: agar diffusion / agar ; dose: 2.5 mg/mL ; value: 7 mm
O=c1[nH]c(O)c(/C=C2\C=NN=C2c2ccccc2O)s1 ; read by: agar diffusion / agar ; dose: 100 µg/mL ; strain or isolate: fungal strain ; value: 7 mm
O=[N+]([O-])c1ccc(-c2nnc(CN3CCC(n4nc5ccccc5n4)CC3)o2)cc1Cl ; dose: 900 µg/mL ; value: 12.86 mm
Cc1ccc(-c2cn3nc(Cl)sc3n2)cc1 ; read by: agar diffusion ; dose: 75 µg/mL ; value: 0 mm
CC1(C)CC(=O)c2cc(C3=CC(c4ccc(Br)cc4)=CC3c3nnc4c(n3)Nc3ccccc3N4)[nH]c2C1 ; dose: 1000 µg/mL ; strain or isolate: ATCC 2091 ; value: 23 mm
O=[N+]([O-])c1nn2cc(-c3ccc(F)cc3)nc2s1 ; read by: agar diffusion ; dose: 50 µg/mL ; value: 22 mm
S=c1nc2c(n[nH]1)Cc1ccccc1N2 ; dose: 1000 µg/mL ; strain or isolate: ATCC 2091 ; value: 25 mm
O=c1[nH]c(O)c(/C=C2\C=Nc3ccccc3N=C2c2ccccc2O)s1 ; read by: agar diffusion / agar ; dose: 100 µg/mL ; strain or isolate: fungal strain ; value: 15 mm
Cc1ccc(-c2cc(C(F)(F)F)c3c(-c4ccc(Cl)cc4)nn(-c4ccc(S(N)(=O)=O)cc4)c3n2)cc1 ; read by: agar diffusion / agar ; dose: 4000 µg/mL ; strain or isolate: MTCC 227 ; value: 0 mm
Fc1ccc(N2CCN(Cn3nc(C45CC6CC(CC(C6)C4)C5)n(/N=C/c4c(F)cccc4F)c3=S)CC2)cc1 ; read by: agar diffusion ; dose: 200 µg/disc ; strain or isolate: IFO 3007 ; value: <10 mm
CC1=C(Cl)C(O)=CC(=O)C12Oc1cc(O)c(Cl)c(C)c1C2=O ; read by: agar diffusion ; dose: 25 µg/mL ; strain or isolate: MTCC 227 ; value: 23 mm
CC1(C)C/C(=N\NC(=O)c2ccccc2)c2cc(/C=N/Nc3nnc4c(n3)Nc3ccccc3N4)[nH]c2C1 ; dose: 1000 µg/mL ; strain or isolate: ATCC 2091 ; value: 22 mm
Nc1ccc(Nc2ccc(F)cc2)c2c(=O)[nH]cnc12 ; read by: agar diffusion ; dose: 1000 µg/mL ; strain or isolate: ATCC 10231 ; value: 0 mm
O=S(=O)(NC(=S)Nc1ccccc1)c1ccc(N2N=C(c3ccc(Cl)cc3)CC2c2ccccc2)cc1 ; dose: 1000 µg/mL ; strain or isolate: ATCC 2091 ; value: 28 mm
CC1(C)C=C2OC(c3ccccc3O)=C(/C=C3\SC(=O)NC3=O)C=C2C(=O)C1 ; read by: agar diffusion / agar ; dose: 100 µg/mL ; strain or isolate: fungal strain ; value: 6 mm
C1=N\n2c(nnc2-c2cccnc2)SCCCCSc2nnc(-c3cccnc3)n2/N=C\c2ccccc2OCCCCOc2ccccc2/1 ; read by: agar diffusion / agar ; dose: 5 mg/mL ; strain or isolate: RCMB 005003 ; value: 1–5 mm
CC(=O)Nc1nc(C)c(-c2n[nH]c(=S)n2N2C(=O)CSC2c2ccc(N(C)C)cc2)s1 ; read by: agar diffusion ; dose: 100 µg/mL ; value: 16 mm
Fc1cccc(F)c1/C=N/n1c(C23CC4CC(CC(C4)C2)C3)nn(CN2CCN(Cc3ccccc3)CC2)c1=S ; read by: agar diffusion ; dose: 200 µg/disc ; strain or isolate: IFO 3007 ; value: 17 mm
N#CNc1ncc(/C=C2\SC(=O)NC2=O)c(-c2ccccc2O)n1 ; read by: agar diffusion / agar ; dose: 100 µg/mL ; strain or isolate: fungal strain ; value: 8 mm
Clc1nccc2nc(-c3ccccn3)c(-c3ccccn3)nc12 ; dose: 250 mg/mL ; value: 35 mm
CC(=O)Nc1nc(C)c(-c2n[nH]c(=S)n2N2C(=O)CSC2c2ccc(O)cc2)s1 ; read by: agar diffusion ; dose: 100 µg/mL ; value: 23 mm
O=C(N/N=C/c1ncc[nH]1)C12CC3CC(CC(C3)C1)C2 ; read by: agar diffusion / agar ; dose: 200 µg ; strain or isolate: IFO 0583 ; value: 17 mm
CC1=NN(c2nnc3c(n2)Nc2ccccc2N3)C(=O)C1=C(C)C ; dose: 1000 µg/mL ; strain or isolate: ATCC 2091 ; value: 23 mm

The first 4 rows once more:

| SMILES | read by | dose | strain or isolate | value |
|---|---|---|---|---|
| Cn1c(=S)[nH]c2nc(-c3ccccn3)c(-c3ccccn3)nc2c1=O | - | 500 mg/mL | - | 0 mm |
| Cc1ccc(-c2nn(-c3ccc(S(N)(=O)=O)cc3)c3nc(C(F)(F)F)cc(C(F)(F)F)c23)cc1 | agar diffusion / agar | 4000 µg/mL | MTCC 227 | 0 mm |
| CC(=O)Nc1nc(C)c(-c2n[nH]c(=S)n2N2C(=O)CSC2c2ccc(C)cc2)s1 | agar diffusion | 100 µg/mL | - | 25 mm |
| CS(=O)(=O)c1nc(N)c(C#N)c(-c2ccccc2O)n1 | agar diffusion | 50 µg/mL | MTCC 227 | 17 mm |

a–b is a range or a potency band. Conditions beyond the fields shown may differ between rows. An empty or dashed field is not shown.